Record: PubChem BioAssay AID504761 (Drosophila RNAi Screening Center, 2011)
Purpose: 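Insect host genes that dengue virus relies on to spread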 (primary screen). System: D.Mel-2 cells from Drosophila. Reagent: long dsRNA against Drosophila genes. Treatment: infection with dengue virus type 2; dose and infection time not stated. Detection: 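Per well on two replicate plates, imaging gave the percent of cells positive for viral envelope protein, ranked by infection, and a nuclear count of cells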. Reading the numbers: infection score: higher = more virus-infected cells; cell count: higher = more cells in the well. Rule for the call: 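Low infection ranks in the two replicates (chance level up to 0.065) followed by a retest with a 1.5-fold or larger significant decrease, p below 0.05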. Calls: active = confirmed: knock-down lowers infection; inactive = not picked or not confirmed.
The screen tested about 22,000 reagents; shown is a random part of those that have a named target and a result. In the full data, 116 (0.52%) are marked active. 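Calls depend on retest data that are not deposited; infection was ranked per plate without normalising between plates; the unit of the infection score is not given.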 The raw values are shown without normalisation. Names joined by + are all predicted targets of the reagent. Not given: the amount of reagent, the time to read-out.

gene knocked down	DRSC id	infection score, replicate 1	infection score, replicate 2	cell count, replicate 1	cell count, replicate 2	call
CG17272	DRSC15211	1.56	6.46	6971	5298	inactive
RN-tre (Related to the N terminus of tre oncogene)	DRSC07521	25.1	5.82	6068	6478	inactive
RN-tre (Related to the N terminus of tre oncogene)	DRSC28214	2.21		587	359	inactive
Hk (Hyperkinetic)	DRSC17638	6.98	8.62	5570	4979	inactive
Hk (Hyperkinetic)	DRSC24985	2.66	5.92	5939	6145	inactive
CG9030	DRSC20139	6.58	3.44	6475	6425	inactive
CG44001 + CG33995	DRSC00853	2.39	1.73	5899	5909	inactive
CG44001 + CG33995	DRSC02898	7.67	7.26	6092	6298	inactive
CG42673	DRSC08989	3.14	2.73	6179	6301	inactive
CG42673	DRSC08991	0.94	7.39	961	1178	inactive
CG42673	DRSC10177	3.33	3.04	5774	5889	inactive
CG42673	DRSC10264	0.78	2.29	6022	6110	inactive
CG42673	DRSC10353	5.25	3.36	6212	6165	inactive
CG42673	DRSC10354	1.92	4.99	5980	6776	inactive
CG42673	DRSC25788	9.54	1.74	5996	6671	inactive
Surf4 (Surfeit 4)	DRSC16875	1.99	2.16	6318	6429	inactive
gom (gomdanji)	DRSC04690	30.6	9.86	5647	6309	inactive
AP-1gamma (Adaptor Protein complex 1, gamma subunit)	DRSC18433	15	31.1	2943	4302	inactive
CG10588	DRSC11628	15.7	6.75	6148	3451	inactive
Ser7	DRSC18201	11.1	33.7	7120	3084	inactive
Kebab (Kinetochore and EB1 associated basic protein)	DRSC00827	1.47	6.83	6190	5582	inactive
Kebab (Kinetochore and EB1 associated basic protein)	DRSC29332	17.7	7.34	4916	1335	inactive
CG31802	DRSC02459		2.3	541	999	inactive

3 entries from above, showing only “cell count, replicate 2”:
CG44001 + CG33995 [DRSC00853] = 5909
CG44001 + CG33995 [DRSC02898] = 6298
CG42673 [DRSC08989] = 6301
